Among the data in PubChem BioAssay AID1259415 (National Center for Advancing Translational Sciences (NCATS), 2018) are activity change, negative = inhibition values, retold here.

The list shows a part of the results, in another mix than the full data. Records with an inconclusive call do not appear. Activity calls are given as the source filed them. Rule as the data show it: active = activity change below about -60%; inconclusive = no clear call, values can overlap the other calls; inactive = above about -39%.
% is scaled to controls: 0 for no effect and ±100 for the full control effect.

The nature of the experiment: qHTS Assay for inhibitors of the human cytomegalovirus (HCMV). The note with it: HFF cells, HCMV-luciferase reporter, 72 h; at 57.5 µM; active compounds read low. From the text:
NCGC Assay Overview: Infection with human cytomegalovirus (HCMV) continues to pose significant threats for pregnant women and immunocompromised hosts. HCMV causes serious morbidity and mortality in transplant recipients, and congenital HCMV is the leading infectious cause of mental retardation and deafness in children. In the 1990s, the annual costs associated with the disease burden of congenital CMV were estimated at around $2 billion. A HCMV vaccine is not available yet and HCMV therapies result in intolerable side effects and emergence of drug resistant viruses. […] Towards this goal we have developed and characterized a luciferase HCMV reporter that was initially used in 96 well plates and then optimized to 1536-well plates for utilization in screening of the MLSMR collection, the NGCG diversity collection and the NCGC Pharmaceutical Collection of approved and investigational drugs.
NCGC Assay Protocol Summary:
This is a cell-based assay for HCMV inhibition in HFFs cells. The screening used 2 compound doses and the HCMV-luciferase at MOI of 1 PFU/cell. Cells were treated and infected with HCMV. At 72 h post infection cell lysates were collected and luciferase activity was determined using the Glomax-Multi + Detection System (Promega, Madison, WI). Data were normalized to the controls for basal activity (buffer only) and known HCMV inhibitors Salinmoycin.
1536-well assay protocol for the assay:
(1) Add 3 ul CMV/HFF cell culture. 1000 cells/well in DMEM nirmal media.
(2) Incubate 16 hr at 37C.
(3) Add 23 nl control compound, 10uM of Salinomycin.
(4) Add 23 nl compounds in DMSO solution.
(5) Add 3 ul CMV suspension. Final 1 puf/ul, Virus stock 2000pfu/ul
(6) Incubate 72 hrs at 37C.
(7) Add 4 ul OneGlo Luc Reagent.
(8) Incubate 5 min at room temperature.
(Quantitative high-throughput screening tests each substance at several concentrations.)
`C/C(N)=N\P(=O)(OCc1ccccc1)OCc1ccccc1`: the activity change, negative = inhibition is inactive: -12.9%.

Consider `Nc1ccc([As](=O)(O)c2ccc([N+](=O)[O-])cc2)cc1`, for which the activity change, negative = inhibition is inactive: 0%.

`C(Cc1nn[nH]n1)Cc1nn[nH]n1`: the activity change, negative = inhibition was inactive: 6.52%.

Take `O=P(Nc1ccccn1)(c1ccc(Br)cc1)c1ccc(Br)cc1`: the activity change, negative = inhibition is inactive: -6.41%.

On to `CN(C)C1(CNC(=O)c2ccc(Cl)c(S(N)(=O)=O)c2)CCCCC1`, for which the activity change, negative = inhibition is inactive: 0.953%.

Consider `Nc1ccc(CCCCOc2ccccc2)cc1`, for which the activity change, negative = inhibition is inactive: 6.03%.

`COc1ccc(N)c([N+](=O)[O-])c1[N+](=O)[O-]`: the activity change, negative = inhibition was inactive: -4.13%.

In the case of `O=P(Nc1nc2ccccc2s1)(c1ccccc1)c1ccccc1`, the activity change, negative = inhibition is inactive: 0%.

On to `C[C@H]1OP(=O)(Oc2ccccc2)[C@H](O)[C@H](O)[C@H]1N=[N+]=[N-]` (stereo partly specified), for which the activity change, negative = inhibition was inactive: 4.25%.

As to `O=[N+]([O-])c1ncn(CCn2ncnc2[N+](=O)[O-])n1`, the activity change, negative = inhibition is inactive: 8.73%.

With `CC(C)(C)C(=O)NC(Sc1ccncn1)C(Cl)(Cl)Cl` (stereo unspecified), the activity change, negative = inhibition was inactive: 34.6%.

For `O=C(O)CNc1ccc([As](=O)(O)O)cc1`, the activity change, negative = inhibition is inactive: -30%.

As for `O=[N+]([O-])c1cccc(NC2=NCC(CBr)S2)c1` (stereo unspecified), the activity change, negative = inhibition is inactive: 8.69%.

On to `COC(=O)C1(C)COP(=O)(Nc2ccccc2)OC1` (stereo unspecified), for which the activity change, negative = inhibition is inactive: 21.8%.

As to `O=P1(N(CCCl)CCCl)OCCCS1` (stereo unspecified), the activity change, negative = inhibition was inactive: 3.97%.

`O=C(Nc1cc([As](=O)(O)O)ccc1O)c1ccccc1`: the activity change, negative = inhibition is active: -101%.

On to `CCN(/C(=N/P(=O)(N1CCOCC1)N1CCOCC1)N1CCOCC1)c1ccc(OC)cc1`, for which the activity change, negative = inhibition is inactive: -0.947%.

For the compound `Nc1ccc([As](=O)(O)c2ccc(N)cc2)cc1`, the activity change, negative = inhibition is inactive: -17.8%.

Turning to `C[N+]1=C2C=CC=CC=C2SC12C([N+](=O)[O-])=CC([N+](=O)[O-])=C[C-]2[N+](=O)[O-]` (stereo unspecified), the activity change, negative = inhibition was active: -100%.

For `c1cc(-c2nn[nH]n2)ccc1-c1nn[nH]n1`, the activity change, negative = inhibition was inactive: -36.5%.

Take `CC1CCN(C(=O)Oc2c(Cl)cc(Cl)c3cccnc23)CC1`: the activity change, negative = inhibition is inactive: 7.7%.

As to `CC(C)=N/N=C(\N)N[N+](=O)[O-]`, the activity change, negative = inhibition is inactive: 3.23%.

In the case of `CC(C)c1nc(Nc2ccccc2)n(P(=O)(N(C)C)N(C)C)n1`, the activity change, negative = inhibition is inactive: 49.7%.

For the compound `CN(C)C(=O)OCCc1n(C)cc[n+]1C`, the activity change, negative = inhibition was inactive: 36.5%.

Regarding `COc1ccc(C2=NCC(CBr)S2)cc1` (stereo unspecified), the activity change, negative = inhibition was inactive: 9.09%.

In the case of `CCc1nc2c(n1)c1c(non1O)c1c2no[n+]1[O-]`, the activity change, negative = inhibition is active: -68.1%.

Turning to `O=[N+]([O-])c1cc([N+](=O)[O-])c(CCNc2ccccc2)c([N+](=O)[O-])c1`, the activity change, negative = inhibition is inactive: -25.9%.

Regarding `O=[N+]([O-])c1cccc2n[nH]nc12`, the activity change, negative = inhibition is inactive: 74.2%.

As for `CC(=O)N1C2C3N(C(C)=O)C1C1N(C(C)=O)C(C(N1C(C)=O)N3C(C)=O)N2C(C)=O`, the activity change, negative = inhibition was inactive: -4.82%.

In the case of `Oc1ccccc1CNc1ccccn1`, the activity change, negative = inhibition is inactive: -23.8%.

With `O=C(NC(Sc1ccncn1)C(Cl)(Cl)Cl)c1ccccc1` (stereo unspecified), the activity change, negative = inhibition is inactive: 75.5%.

For the compound `CC(C)CC(=O)NC(Sc1ccc(Cl)cc1)C(Cl)(Cl)Cl` (stereo unspecified), the activity change, negative = inhibition is inactive: 45.5%.

Take `Nc1cc(N)c2nonc2c1[N+](=O)[O-]`: the activity change, negative = inhibition is inactive: 4.86%.

`CN(C(=O)Cc1ccc(Cl)c(Cl)c1)[C@H]1CCCC[C@H]1N1CCCC1`: the activity change, negative = inhibition is inactive: -1.22%.

As for `Cc1ccc(N/C(=N/P(=O)(N2CCOCC2)N2CCOCC2)N2CCOCC2)cc1`, the activity change, negative = inhibition is inactive: -1.89%.

For the compound `NC(=O)c1cc([N+](=O)[O-])cc([N+](=O)[O-])c1N`, the activity change, negative = inhibition was inactive: -15.1%.

With `Clc1ccc(Cl)c(NC2=NCC(CBr)S2)c1` (stereo unspecified), the activity change, negative = inhibition is inactive: -1.78%.

`CN1CCCC(OC(=O)C(c2ccccc2)c2ccccc2)C1` (stereo unspecified): the activity change, negative = inhibition is inactive: 49.3%.

Consider `COc1ccccc1OP(=O)(Nc1ccc(C)cn1)Oc1ccccc1OC`, for which the activity change, negative = inhibition is inactive: -24.9%.

For `Cc1ccc(OP(=O)(Nc2nccs2)Oc2ccc(C)cc2)cc1`, the activity change, negative = inhibition was inactive: -18.5%.

With `Nc1cccc2ccc([As](=O)(O)O)cc12`, the activity change, negative = inhibition is active: -86.5%.

Take `CN(C(=O)Cc1ccccc1)C1CC[C@@]2(CCCO2)C[C@@H]1N1CCCC1` (stereo partly specified): the activity change, negative = inhibition is inactive: -22.1%.

`CCN(N=Nc1nonc1N)c1nonc1N`: the activity change, negative = inhibition was inactive: -18.8%.

In the case of `CN(C)P(=O)(N(C)C)n1c(Nc2ccccc2)nnc1-c1ccccc1`, the activity change, negative = inhibition is inactive: -0.348%.

For `O=P(Nc1nc2ccc(Cl)cc2s1)(c1ccccc1)c1ccccc1`, the activity change, negative = inhibition was inactive: 27.2%.

As for `O=C(O)c1ccccc1[As](=O)(O)O`, the activity change, negative = inhibition was inactive: -30.4%.

Consider `CC(=O)Nc1ccc([As](=O)(O)O)cc1`, for which the activity change, negative = inhibition was inactive: 4.07%.

For the compound `CCCC1OP(N)(=O)OCC1CC` (stereo unspecified), the activity change, negative = inhibition was inactive: 15.2%.

For `CCn1c(=O)n(C2CCN(CC3CCCCCCC3)C[C@H]2CO)c2ccccc21` (stereo partly specified), the activity change, negative = inhibition was inactive: -11.9%.

On to `CCOP(=O)(Nc1ccccc1)OCC`, for which the activity change, negative = inhibition was inactive: -32.9%.

Take `Cc1cc(SC(NC(=O)c2ccc(F)cc2)C(Cl)(Cl)Cl)ncn1` (stereo unspecified): the activity change, negative = inhibition is inactive: 13.8%.
